From publication PMC10707942, “Polyaromatic Bis(indolyl)methane Derivatives with Antiproliferative and Antiparasitic Activity” (Molecules, 2023)

Legend:
[1] = test system: MRC-5 cells; assay: Fluorescence microscopy, overlap with MitoTracker in MRC-5 cells; format: cell-based, human; conditions: 5 μM
[2] = test system: T. brucei parasites; assay: Fluorescence microscopy, overlap with nuclear dye in T. brucei parasites; format: cell-based, Trypanosoma brucei; conditions: 5 μM

c1ccc(N(c2ccccc2)c2ccc(C(c3c[nH]c4ccccc34)c3c[nH]c4ccccc34)cc2)cc1 [Compound 2a]
Pearson's correlation coefficient (PCC), overlap with MitoTracker ([1]; 30 min incubation): 0.83 ± 0.05
Pearson's correlation coefficient (PCC), overlap with MitoTracker ([1]; 2 h incubation): 0.95 ± 0.06
Pearson's correlation coefficient (PCC), overlap with nuclear dye ([2]; 30 min incubation): 0.66 ± 0.19
Pearson's correlation coefficient (PCC), overlap with nuclear dye ([2]; 1 h incubation): 0.82 ± 0.08
Pearson's correlation coefficient (PCC), overlap with nuclear dye ([2]; 2 h incubation): 0.85 ± 0.08
